Laboratory results reported in patent US4017607A.
Some compounds share one wording; it may come from a single statement.

experiment: Bitter taste upon oral administration

| SMILES | bitter taste |
| --- | --- |
| CCC(=O)OC1CC(=O)OC(C)CC=CC=CC(OC(C)=O)C(C)CC(CC=O)C(OC2OC(C)C(OC3CC(C)(O)C(OC(=O)CC)C(C)O3)C(N(C)C)C2O)C1OC (centres unmarked) [9-mono-acetyl SF-837 substance, reference compound] | unpleasant long-lasting bitter taste |
| CCC(=O)OC1CC(=O)OC(C)CC=CC=CC(OC(C)=O)C(C)CC(CC=O)C(OC2OC(C)C(OC3CC(C)(OC(=O)CC)C(OC(=O)CC)C(C)O3)C(N(C)C)C2O)C1OC (centres unmarked) [Compound No. 6] | substantially does not have the bitter taste |
| CCC(=O)OC1C=CC=CCC(C)OC(=O)CC(OC(=O)CC)C(OC)C(OC2OC(C)C(OC3CC(C)(OC(=O)CC)C(OC(C)=O)C(C)O3)C(N(C)C)C2O)C(CC=O)CC1C (centres unmarked) [Compound No. 5] | substantially does not show any bitter taste |
| CCC(=O)OC1CC(=O)OC(C)CC=CC=CC(OC(C)=O)C(C)CC(CC=O)C(OC2OC(C)C(OC3CC(C)(OC(=O)CC)C(OC(=O)C(C)C)C(C)O3)C(N(C)C)C2O)C1OC (centres unmarked) [Compound No. 3] | substantially does not have any bitter taste |
| CCC(=O)OC1CC(=O)OC(C)CC=CC=CC(OC(C)=O)C(C)CC(CC=O)C(OC2OC(C)C(OC3CC(C)(OC(C)=O)C(OC(=O)CC)C(C)O3)C(N(C)C)C2O)C1OC (centres unmarked) [Compound No. 2] | practically no bitter taste |
| CCC(=O)OC1CC(=O)OC(C)CC=CC=CC(OC(C)=O)C(C)CC(CC=O)C(OC2OC(C)C(OC3CC(C)(OC(=O)CC)C(OC(C)=O)C(C)O3)C(N(C)C)C2O)C1OC (centres unmarked) [Compound No. 1] | substantially does not show any bitter taste |
| CCC(=O)OC1CC(=O)OC(C)CC=CC=CC(OC(C)=O)C(C)CC(CC=O)C(OC2OC(C)C(OC3CC(C)(OC(=O)CC)C(OC(=O)CC(C)C)C(C)O3)C(N(C)C)C2O)C1OC (centres unmarked) [Compound No. 4] | substantially does not have any bitter taste |
| CCC(=O)OC1CC(=O)OC(C)CC=CC=CC(OC(C)=O)C(C)CC(CC=O)C(OC2OC(C)C(OC3CC(C)(O)C(OC(=O)CC)C(C)O3)C(N(C)C)C2OC(C)=O)C1OC (centres unmarked) [9,2'-di-acetyl SF-837 substance, reference compound] | unpleasant long-lasting bitter taste |
